Test results as given in patent publication US12252524B2 (Eli Lilly and Company, priority 2018, dated 2025).

Test: general procedure: Fmoc solid-phase peptide synthesis; Fmoc-Rink-MBHA Low Loading resin, 100-200 mesh, 1% DVB cross-linked polystyrene, 0.3-0.4 meq/g (EMD Millipore); diisopropylcarbodiimide/Oxyma; PyAOP/DIPEA for fatty acid-linker
Conditions: whole synthesis, analytical RP-HPLC, TFA salt

Y-Aib-EGT-αMeF(2F)-TSDYSI-αMeL-LDEK((2-[2-(2-Amino-ethoxy)-ethoxy]-acetyl)2-(γ-Glu)-CO—(CH2)18—CO2H)AQ-Aib-EFI-(D-Glu)-YLIEGGPSSGAPPPS-NH2
final HPLC purity: 98.0%
